Paper PMC10715180
For at least one entry, the source does not settle the construct or the ends of the probe.

Biological target: PhoP (PhoPmas) WT, phosphorylated with acetyl phosphate (UniProt B1MHU9)
Test: EMSA
Conditions: acetyl phosphate-treated, binding enhanced vs unphosphorylated, […] (binding temperature not stated), recombinant protein, protein details: N-terminal His6 (pET14b), label: IRDye700 on both primers, probe letters rebuilt from the primers and the genome

“AGGTAATCTTCCCCCCAAAATTTACGATGCGCTGGATCTTCACTGTGAGCTTCCTGTGAGTTACTCACAGCAGATTGTCAGCCAACCGCGCCAGGTCGCCCTACAGTTGAGCC (double strand) [phoP promoter probe WT]”: binds.
